Values quoted from earlier work, collected in publication PMC9469084, “Unravelling the pharmacokinetics of aflatoxin B1: In vitro determination of Michaelis–Menten constants, intrinsic clearance and the metabolic contribution of CYP1A2 and CYP3A4 in pooled human liver microsomes” (Frontiers in Microbiology, 2022).

System: human liver microsomes
Settings: cited from earlier work

## Cc1ncc2n1-c1ccc(Cl)cc1C(c1ccccc1F)=NC2 [MDZ, midazolam, reference compound]
Earlier reported values for MDZ, ref Von Moltke et al., 1996, Hickman et al., 1998, Yuan et al., 2002, Bian et al., 2015, Kazmi, Nguyen et al., 2016, Gao et al., 2017
  Vmax range: 190.0–4,380 pmol/(mg.min)
read-out: Km range, earlier reported values for MDZ, ref Von Moltke et al., 1996, Hickman et al., 1998, Yuan et al., 2002, Bian et al., 2015, Kazmi, Nguyen et al., 2016, Gao et al., 2017
  Km: 1.9 to 9 µM
